Legend:
epsilon/zeta complex [1] = target: T1, epsilon/zeta complex (Streptococcus pyogenes, UniProt Q54944); assay: X-ray crystal structure, […] Å (crystals soaked with […] UNAG); settings: UNAG in deep cleft of zeta toxin; antitoxin-bound complex
PezTΔC242 = PezTΔC242 (Streptococcus pneumoniae, UniProt Q97QZ1); assay: anion exchange chromatography of kinase reaction; settings: phosphoryl donor; 1 mM ATP, 0.25 mM UNAG, 5 mM MgCl2, 25 °C, pH 7.5
epsilon/zeta complex [2] = target: T1, epsilon/zeta complex; assay: anion exchange chromatography of kinase reaction; settings: phosphoryl donor; 1 mM ATP, 0.25 mM UNAG, 5 mM MgCl2, 25 °C, pH 7.5, 24 h; antitoxin present

Compound	X-ray crystal structure, 2.7 Å (crystals soaked with 10 mM UNAG) (epsilon/zeta complex [1])	anion exchange chromatography of kinase reaction (PezTΔC242)	anion exchange chromatography of kinase reaction (epsilon/zeta complex [2])
CC(=O)N[C@H]1[C@@H](OP(=O)(O)OP(=O)(O)OC[C@H]2O[C@@H](n3ccc(=O)[nH]c3=O)[C@H](O)[C@@H]2O)O[C@H](CO)[C@@H](O)[C@@H]1O [UNAG]	crystal structure of the epsilon/zeta TA complex from S. pyogenes bound to UNAG		
Nc1ncnc2c1ncn2[C@@H]1O[C@H](COP(=O)(O)OP(=O)(O)OP(=O)(O)O)[C@@H](O)[C@H]1O		UNAG kinases that form UDP-N-acetylglucosamine-3′-phosphate (UNAG-3P) from UNAG using ATP	zeta toxin from S. pyogenes can catalyze the same reaction as PezT and modifies UNAG

— article PMC3062530, “A Novel Mechanism of Programmed Cell Death in Bacteria by Toxin–Antitoxin Systems Corrupts Peptidoglycan Synthesis” (PLoS Biology, 2011)
